Assay results published in article PMC13638050 (PLOS Biology, 2026).

Target: H1 stem (recombinant HA stem construct #4900 designed based on H1N1 A/Brisbane/59/2007 HA) (influenza A virus H1N1 …, biotin on the BirA biotinylation site (BirA kit))
Test: BLI
Details: both partners purified

B1: somatic 310-18G10 Fab with VH N35 reverted to VH S35 (Fab, V domains shown)
VH: QVQLVQSGAEVKKPGSSVKVSCKASGVTFSGYAISWVRQAPGQGLEWMGGISPLFGTPNLAQKFQGRVTFTADKSTSTDYMEVSSLRSEDTAVYYCVSTSEPGGLAVAGSRYFDYWGQGTLLTVSS
VL: LSVSPGERATLSCRASQSVSSNLAWYQQKPGQAPRLLIYGASTRAAGIPARFSGSGSGTEFTLTISSLQSEDFAVYYCQQYNDWPRTFGQGTKVEIR
  fold weakening of the binding affinity against somatic 310-18G10: ~4 fold
